Data reported in publication PMC10958470 (Virus Research, 2024).
Like-named read-outs stand apart in the source and are kept apart here.

Target: SARS-CoV-2 helicase (nsp13) (Severe acute respiratory syndrome coronavirus 2, UniProt P0DTD1)
Assay type: biochemical

## FPA-124
read-out: DTT Helicase IC50
  IC50: 16.9 µM
read-out: Helicase IC50
  IC50: 0.13 µM
